Results of unrelated studies side by side (data: NIAID ChemDB).

Common to all: enzyme or target tests; agent: HIV-1; target: Integrase; measure: IC50

a–b is a range or a potency band.

N=C(CC(=O)c1cn(Cc2ccc(F)cc2)cc1-c1ccccc1)C(=O)O ; read by: strand transfer ; result: 0.044 µM
COc1c2c3c(c4c1OCO4)-c1c(ccc(O)c1OC)C[C@@H]3NCC2 ; result: >100 µM
COc1ccc(CN=[N+]=[N-])cc1C(=O)CC(=O)C(=O)O ; read by: strand transfer ; result: 18–24 µM
O=C1/C(=C\c2cc(O)c(O)c(O)c2)Cc2ccccc21 ; read by: strand transfer ; result: 0.7 µM
O=C1Sc2ccc(Cl)cc2C(=O)N2CCSC12 ; read by: strand transfer ; result: 90 µM
CN(C)CCCNC(=O)c1cc(NC(=O)c2cc(NC(=O)c3cc(NC(=O)c4ccnc(C(=O)Nc5cc(C(=O)Nc6cc(C(=O)Nc7cc(C(=O)NCCCN(C)C)n(C)c7)n(C)c6)n(C)c5)c4)cn3C)cn2C)cn1C ; read by: disintegration ; result: 3.7 µM
COc1ccc2c(c1)C(=O)N(O)C(=O)C2C(=O)NCc1ccc(F)cc1 ; read by: strand transfer ; result: 0.62 µM
C[C@@H]1CC[C@@]2(C)C(C(=O)O)=CC(=O)CC2[C@@]1(C)CCC1=CCOC1=O ; read by: strand transfer / absorbance ; result: >50 µM
CC(=O)Nc1ccc2c(c1)C(=O)N(O)C(=O)C2C(=O)NCc1ccc(F)cc1 ; read by: strand transfer ; result: 0.06 µM
CCOC(=O)C1Sc2ccccc2C(=O)n2cccc21 ; read by: strand transfer ; result: >1000 µM
COc1cc(/C=C/S(=O)(=O)CS(=O)(=O)/C=C/c2ccccc2)cc(OC(C)=O)c1OC(C)=O ; read by: 3′ processing ; result: 80 µM
O=C(Cc1ccccc1)Nc1ccc2c(c1)C(=O)N(O)C(=O)C2C(=O)NCc1ccc(F)cc1 ; read by: strand transfer ; result: 0.27 µM
O=C1/C(=C/c2ccc(O)c(O)c2)CCC/C1=C\c1ccc(O)c(O)c1 ; read by: 3′ processing ; result: 0.9 µM
O=CNc1ccc(S(=O)(=O)c2ccc(NC=O)cc2)cc1 ; read by: disintegration ; result: >100 µM
O=C(O)C(=O)/C=C(\O)c1c[nH]c(=O)n(Cc2ccccc2)c1=O ; read by: strand transfer ; result: 0.5 µM
COc1c(O)ccc2c1-c1c3c(c(OC)c4ccnc(c14)C2=O)OCO3 ; result: 21.1 µM
O=C1OC(=O)c2cc(S(=O)(=O)c3ccc4c(c3)C(=O)OC4=O)ccc21 ; read by: strand transfer ; result: 18.6 µM
O=C1C(=O)c2ccccc2C(O)=C1CSc1ccc(Cl)cc1 ; read by: strand transfer ; result: >100 µM
O=C(Oc1ccc(/C=C/S(=O)(=O)CS(=O)(=O)/C=C/c2ccc(OC(=O)c3ccccc3)c(OC(=O)c3ccccc3)c2)cc1OC(=O)c1ccccc1)c1ccccc1 ; read by: 3′ processing ; result: 700 µM
C=C(CC[C@@H](C)[C@H]1CC=C2C3=C([C@@H](O)[C@H](OC(C)=O)[C@@]21C)[C@@]1(C)C[C@@H](O)[C@H](OS(=O)(=O)O)C(C)(C)[C@@H]1CC3)C(C)C ; read by: absorbance ; result: 4 µM
C[C@@H]1CCO[C@H]2Cn3cc(C(=O)NCc4ccc(F)cc4F)c(=O)c(O)c3CN12 ; mutations: Y143R ; result: 0.025 µM
O=[N+]([O-])c1cc(S(=O)(=O)c2ccc(F)c([N+](=O)[O-])c2)ccc1F ; read by: strand transfer ; result: 59 µM
O=C(NNC1=Nc2ccccc2C(c2ccccc2)=NC1)c1cnccn1 ; read by: substrate cleavage ; result: 2 µM
COc1cc2ccnc3c2c(c1OC)-c1c(ccc(O)c1OC)C3=O ; result: >100 µM
C[C@@H]1CC[C@@]23COC(=O)C2=CCCC3[C@@]1(C)CCC1=CC(=O)OC1 ; read by: strand transfer / absorbance ; result: 35.72 µM
CCOc1ccc(C(C2=C(O)c3ccccc3C(=O)C2=O)C2=C(O)c3ccccc3C(=O)C2=O)cc1OC ; read by: 3′ processing ; result: >100 µM
O=C1OC[C@H]2[C@H](c3ccc(O)c(O)c3)c3cc(O)c(O)cc3C[C@H]12 ; read by: strand transfer / radiometric ; strain or isolate: HXB2 ; result: 0.5 µM
CC(=O)Oc1ccc(/C=C/S(=O)(=O)CS(=O)(=O)/C=C/c2ccc(OC(C)=O)c(OC(C)=O)c2)cc1OC(C)=O ; read by: 3′ processing ; result: 70 µM
CN(C)CCCNC(=O)c1cc(NC(=O)c2cc(NC(=O)c3cc(NC(=O)c4ncccc4C(=O)O)cn3C)cn2C)cn1C ; read by: 3′ processing ; result: >100 µM
O=c1cc(-c2ccccc2)oc2cc(O)c(O)c(O)c12 ; read by: strand transfer / absorbance ; result: 1.36 µM
O=C(NCc1ccc(F)cc1)C1C(=O)N(O)C(=O)c2ccccc21 ; read by: 3′ processing ; result: 0.066 µM
O=C(Nc1ccc([N+](=O)[O-])cc1)C(=S)NN1C(=O)/C(=C\c2ccc(Cl)cc2)SC1=S ; read by: strand transfer ; result: >100 µM
O=C1/C(=C/c2cc(O)c(O)c(O)c2)COC/C1=C\c1cc(O)c(O)c(O)c1 ; read by: disintegration ; result: 10 µM
COc1ccc2c(c1)C(=O)N1CSCC1C(=O)S2 ; read by: 3′ processing ; result: 215 µM
O=C1c2ccc3c(c2-c2c4c(cc5ccnc1c25)OCO4)OCO3 ; result: 16.3 µM
COC(=O)C(=O)OC1(C(=O)O)C[C@@H](OC(=O)/C=C/c2ccc(O)c(O)c2)C(O)[C@H](OC(=O)/C=C/c2ccc(O)c(O)c2)C1 ; read by: strand transfer ; strain or isolate: LAI ; result: 0.26 ± 0.08 µg/mL
CN(C)CCCNC(=O)c1cc(NC(=O)c2cc(NC(=O)c3cc(NC4C(=O)c5ccccc5C4=O)cn3C)cn2C)cn1C ; read by: disintegration ; result: 28.5 µM
CCCCCC[C@@H](C)C1=C(O)C(=O)[C@@H]2[C@H](O)[C@H](C)C[C@H](O)[C@H]2[C@]1(C)C(=O)CCO ; read by: strand transfer ; result: >200 µM
CC(=O)Oc1ccc(/C=C/C(=O)O[C@H](C(=O)O)[C@H](OC(=O)/C=C/c2ccc(OC(C)=O)c(OC(C)=O)c2)C(=O)O)cc1OC(C)=O ; read by: disintegration ; strain or isolate: IIIB ; result: 10 µM
O=C1c2ccccc2SCC2CSC(c3ccccc3)N12 ; read by: strand transfer ; result: 332 µM
CN(C)CCCNC(=O)c1cc(NC(=O)c2cc(NC(=O)c3cc(NC(=O)c4cnccc4C(=O)O)cn3C)cn2C)cn1C ; read by: disintegration ; result: >100 µM
CN1C(=O)C(=O)/C(=C(\O)c2ccccn2)C1c1cccc(Cl)c1 ; read by: 3′ processing ; result: >100 µM
O=C(O)C(=O)CC(=O)c1cccc(Cc2cccc(F)c2)c1 ; read by: strand transfer ; strain or isolate: IIIB ; result: 0.15 µM
Cc1oc2cc3c(-c4c(O)cc(O)c5c(O)c6c(cc45)OC(C)C(C)C6=O)c(=O)cc(O)c3c(O)c2c(O)c1C ; read by: strand transfer ; result: 4 µM
O=C1C=CC(=O)c2c(O)ccc(O)c21 ; read by: strand transfer ; result: 2.5 µM
O=c1oc2ccccc2c(O)c1C(c1ccc(N(CCCl)CCCl)c([N+](=O)[O-])c1)c1c(O)c2ccccc2oc1=O ; read by: 3′ processing ; result: 8.5 µM
Cn1cc(NC(=O)c2cc(NC(=O)c3cc(NC(=O)C[C@@H]4C5C=CC(C5)[C@H]4C(=O)Nc4cc(C(=O)Nc5cc(C(=O)Nc6cc(C(=O)NCCC(=N)N)n(C)c6)n(C)c5)n(C)c4)cn3C)cn2C)cc1C(=O)NCCC(=N)N ; read by: 3′ processing ; result: 36.5 µM
O=C(NCCCCl)C1C(=O)N(O)C(=O)c2ccccc21 ; read by: strand transfer ; result: 0.187 µM
O=C(O)/C=C/c1cc(C(=O)O)c(O)c2nc(/C=C/c3ccc(O)c(O)c3)ccc12 ; read by: strand transfer ; result: 0.006 µM
CCCCCCNC(=O)c1c(O)n(O)c(=O)c2cc([N+](=O)[O-])ccc12 ; read by: strand transfer ; result: 1.64 µM
O=c1oc2ccccc2c(O)c1C(c1ccc(N(CCCl)CCCl)cc1)c1c(O)c2ccccc2oc1=O ; read by: 3′ processing ; result: 6.6 µM
O=C(/C=C/c1ccc(O)c(O)c1)O[C@@H]1C[C@](OC(=O)/C=C/c2ccc(O)c(O)c2)(C(=O)O)C[C@@H](O)[C@H]1O ; read by: disintegration ; strain or isolate: LAI ; result: 0.84 ± 0.08 µg/mL
Nc1ccc(S(=O)(=O)c2ccc(N)cc2)cc1 ; read by: strand transfer ; result: >100 µM
Cc1coc2c1[C@H]1C=C(CC[C@@H]3O[C@]3(C)C2)C(=O)O1 ; result: >100 µM
O=C(NCCc1ccc(F)cc1)c1c(O)n(O)c(=O)c2cc([N+](=O)[O-])ccc12 ; read by: strand transfer ; result: 0.03 µM
O=C1C(=O)c2ccccc2C(O)=C1C(CCc1ccccc1)C1=C(O)c2ccccc2C(=O)C1=O ; read by: strand transfer ; result: 72 µM
O=C(O)c1ccc2ccc(/C=C/c3cc(O)c(O)c(O)c3)nc2c1O ; read by: 3′ processing ; result: 2.4 µM
NC(N)=NC(N)=Nc1ccc(S(=O)(=O)c2ccc(N=C(N)N=C(N)N)cc2)cc1 ; read by: strand transfer ; result: >100 µM
CN1CCc2cc(O)c(O)cc2C(c2ccc(O)c(O)c2)C1 ; read by: strand transfer / radiometric ; strain or isolate: HXB2 ; result: 1.7 µM
COc1c(O)ccc2c1-c1c3c(cc4ccnc(c14)C2=O)OCO3 ; result: 18.2 µM
N=C(N)c1ccc(-c2cc3ccc(C(=N)N)cc3[nH]2)cc1 ; read by: 3′ processing ; result: >100 µM
COc1ccc2c(c1O)CNCC2c1ccc(O)c(O)c1 ; read by: strand transfer / radiometric ; strain or isolate: HXB2 ; result: 9 µM
C=C(CC[C@@H](C)[C@H]1CC=C2C3=C([C@@H](O)[C@H](OC(C)=O)[C@@]21C)[C@@]1(C)C[C@@H](O)[C@H](O)C(C)(C)[C@@H]1CC3)C(C)C ; read by: absorbance ; result: 82 µM
COc1cc(C2CNCc3cc(OC)c(O)cc32)ccc1O ; read by: strand transfer / radiometric ; strain or isolate: HXB2 ; result: >35 µM
O=C(O)C(=O)CC(=O)c1ccccc1 ; read by: 3′ processing ; result: >333 µM
Cn1cc(NC(=O)c2cc(NC(=O)c3cc(NC(=O)CCCCCCCCCCCCCCCCCCCCCCC(=O)Nc4cc(C(=O)Nc5cc(C(=O)Nc6cc(C(=O)NCCC(=N)N)n(C)c6)n(C)c5)n(C)c4)cn3C)cn2C)cc1C(=O)NCCC(=N)N ; read by: 3′ processing ; result: 12.2 µM
Nc1ccc(S(=O)(=O)c2ccc(N)c([N+](=O)[O-])c2)cc1[N+](=O)[O-] ; read by: 3′ processing ; result: >100 µM
COc1ccc(C(=O)CC(=O)C(=O)O)cc1Cc1ccccc1 ; read by: strand transfer ; strain or isolate: IIIB ; result: 0.2 µM

5 of the rows above, restated:

smiles	read by	mutations	strain or isolate	result
O=C1C(=O)c2ccccc2C(O)=C1CSc1ccc(Cl)cc1	strand transfer			>100 µM
CN1CCc2cc(O)c(O)cc2C(c2ccc(O)c(O)c2)C1	strand transfer / radiometric		HXB2	1.7 µM
C[C@@H]1CC[C@@]2(C)C(C(=O)O)=CC(=O)CC2[C@@]1(C)CCC1=CCOC1=O	strand transfer / absorbance			>50 µM
COc1cc(/C=C/S(=O)(=O)CS(=O)(=O)/C=C/c2ccccc2)cc(OC(C)=O)c1OC(C)=O	3′ processing			80 µM
CN(C)CCCNC(=O)c1cc(NC(=O)c2cc(NC(=O)c3cc(NC(=O)c4ncccc4C(=O)O)cn3C)cn2C)cn1C	3′ processing			>100 µM

Lines come from different laboratories, so protocols vary. An empty or dashed field is not shown. ICn: concentration for n% inhibition.